Anti-infective test results gathered from many reports (values: NIAID ChemDB through PubChem).

Shared fields: tests on isolated targets; organism: HIV-1; target: Protease

Rows are shuffled and stem from different studies.

smiles | method | read-out | mutations | value
CC(=O)CCC(C)(C)CN(C[C@@H](O)[C@H](Cc1ccccc1)NC(=O)O[C@H]1CO[C@H]2OCC[C@H]21)S(=O)(=O)c1cccc2c1OCO2 | fluorescence | Ki |  | <0.001 µM
CC(C)C[C@H](NC(=O)[C@@H](NC(=O)CCCCCCCCCCCCCCC(=O)N[C@@H](CS(C)(=O)=O)C(=O)N[C@@H](Cc1ccccc1)C(=O)O)C(C)O)C(=O)N[C@@H](Cc1ccccc1)C(N)=O | HPLC | IC50 |  | 2.9 µM
Cc1cn([C@@H]2C[C@@H](N=[N+]=[N-])[C@H](COC(=O)C(C)(C)CC(=O)N[C@@H](Cc3ccccc3)[C@H](O)C(=O)N3CSC(C)(C)[C@H]3C(=O)NC(C)(C)C)O2)c(=O)[nH]c1=O |  | IC50 |  | >5 µM
CC(C)(CCCNC(=O)c1ccccc1)CN(C[C@@H](O)[C@H](Cc1ccccc1)NC(=O)O[C@H]1CO[C@H]2OCC[C@H]21)S(=O)(=O)c1ccc2c(c1)OCO2 | fluorescence | Ki |  | <0.001 µM
Cc1ccccc1CNC(=O)[C@@H]1CSCN1C(=O)[C@@H](O)[C@H](Cc1ccccc1)NC(=O)CC(C)(C)C(=O)O |  | IC50 |  | <5 µM
O=C(Oc1ccccc1)N1C2C3C4N(C(=O)Oc5ccccc5)C5C(C1C5(CO)[C@H]3c1ccccc1)[C@@H](c1ccccc1)C24CO |  | IC50 |  | 0.3 µM
CCOC(=O)NCCCCC(C)(C)CN(C[C@@H](O)[C@H](Cc1ccccc1)NC(=O)O[C@@H]1CO[C@@H]2OCC[C@@H]21)S(=O)(=O)c1ccc(N)cc1 | fluorescence | Ki |  | <0.001 µM
Cc1c(O)cccc1C(=O)N[C@@H](c1ccc(-c2cccs2)cc1)[C@H](O)CN1C[C@H]2CCCC[C@H]2C[C@H]1C(=O)NC(C)(C)C |  | IC50 |  | 4 µM
Cc1ccc(NC(=O)N[C@@H](C)C(=O)N[C@H](C(=O)N[C@@H](Cc2ccccc2)C(O)C(O)[C@H](Cc2ccccc2)NC(=O)[C@@H](NC(=O)[C@H](C)NC(=O)Nc2ccc(C)cc2)C(C)C)C(C)C)cc1 |  | IC50 |  | 0.16 µM
CSCC[C@H](NC(=O)CCCCCCCCCCCCCCC(=O)N[C@H](C(=O)N[C@@H](CC(C)C)C(=O)N[C@@H](Cc1ccccc1)C(N)=O)C(C)O)C(=O)N[C@@H](Cc1ccccc1)C(=O)O | HPLC | IC50 |  | 2.7 µM
CC(C)(CCCCNS(C)(=O)=O)CN(C[C@@H](O)[C@H](Cc1ccccc1)NC(=O)O[C@H]1CO[C@H]2OCC[C@H]21)S(=O)(=O)c1cccc2c1OCO2 | fluorescence | Ki |  | <0.001 µM
CC(C)[C@H](NC(=O)[C@H](C)NS(=O)(=O)c1ccc(Br)cc1)C(=O)N[C@@H](Cc1ccccc1)[C@@H](O)[C@H](O)[C@H](Cc1ccccc1)NC(=O)[C@@H](NC(=O)[C@H](C)NS(=O)(=O)c1ccc(Br)cc1)C(C)C |  | IC50 |  | 0.07 µM
CC1(C)CC[C@]2(C(=O)O)CC[C@]3(C)C(=CCC4[C@@]5(C)CC[C@H](OC(=O)CCC(=O)O)C(C)(C)C5CC[C@]43C)C2C1 |  | IC50 |  | 4 µM
CC(=O)N(CC[C@@H](O)[C@H](Cc1ccccc1)NC(=O)c1cccc(O)c1C)[C@@H](Cc1ccc2ccccc2c1)C(=O)NC(C)(C)C |  | IC50 |  | 1.5 µM
C=C(C)OC(=O)NCCCC(C)(C)CN(C[C@@H](O)[C@H](Cc1ccccc1)NC(=O)O[C@H]1CO[C@H]2OCC[C@H]21)S(=O)(=O)c1ccc2c(c1)OCO2 | fluorescence | Ki |  | <0.001 µM
CC[C@H](C)[C@H](NC(=O)[C@@H](NC(=O)CCCCCCCCCCCCCCC(=O)N[C@@H](CCSC)C(=O)N[C@@H](Cc1ccccc1)C(=O)O)C(C)O)C(=O)N[C@@H](Cc1ccccc1)C(N)=O | HPLC | IC50 |  | 1.67 µM
CC(C)(CCCCOC(=O)N1CCOCC1)CN(C[C@@H](O)[C@H](Cc1ccccc1)NC(=O)O[C@H]1CO[C@H]2OCC[C@H]21)S(=O)(=O)c1ccc2c(c1)OCO2 | fluorescence | Ki |  | <0.001 µM
NC(=O)O[C@@H]1Cc2ccccc2[C@@H]1C1=CN[C@@](Cc2ccccc2)(C[C@H](O)[C@H](CCc2ccccc2)NC(=O)O[C@H]2CCOC2)C1=O |  | IC50 |  | 0.002 µM
CC(C)NC(=O)NCCCCC(C)(C)CN(C[C@@H](O)[C@H](Cc1ccccc1)NC(=O)O[C@H]1CO[C@H]2OCC[C@H]21)S(=O)(=O)c1cccc2c1OCO2 | fluorescence | Ki |  | <0.001 µM
CC(=O)N(CC[C@@H](O)[C@H](Cc1ccccc1)NC(=O)c1cccc(O)c1C)[C@H](Cc1ccccc1)C(=O)NC(C)(C)C |  | IC50 |  | 3.6 µM
CC(C)CN(C[C@@H](O)[C@H](Cc1ccccc1)NC(=O)O[C@H]1CO[C@H]2OCC[C@H]21)S(=O)(=O)c1ccc2[nH]c(O)c(C=NCc3nc4ccccc4[nH]3)c2c1 | substrate cleavage | Ki | L10 V32 M46 L63 A71 I84 | <0.0003 µM
CCNC(=O)[C@H](Cc1ccccc1)N(CC[C@@H](O)[C@H](Cc1ccccc1)NC(=O)c1cccc(O)c1C)C(C)=O |  | IC50 |  | 2.2 µM
CSCC[C@H](NC(=O)CCCCCCCCCCCCCCC(=O)N[C@H](C(=O)N[C@@H](CC(C)C)C(=O)N[C@@H](Cc1ccccc1)C(N)=O)C(C)C)C(=O)N[C@@H](Cc1ccccc1)C(=O)O | HPLC | IC50 |  | 0.58 µM
Cc1ccccc1CNC(=O)[C@H]1N(C(=O)[C@@H](O)[C@H](Cc2ccccc2)NC(=O)C(C)C(C)C(=O)OC[C@@H]2O[C@H](n3cc(C)c(=O)[nH]c3=O)C[C@H]2N=[N+]=[N-])CSC1(C)C |  | IC50 |  | <5 µM
O=C(N[C@@H](CCc1ccccc1)[C@@H](O)C[C@]1(Cc2ccccc2)NC=C([C@H]2c3ccccc3[C@H]3NC(=O)O[C@H]32)C1=O)O[C@H]1CCOC1 |  | IC50 |  | 0.00044 µM
CC(C)C[C@H](NC(=O)[C@@H](NC(=O)CCCCCCCCCCCCCCC(=O)N[C@@H](CC(N)=O)C(=O)N[C@@H](Cc1ccccc1)C(=O)O)C(C)O)C(=O)N[C@H](C(N)=O)C1CCCCC1 | HPLC | IC50 |  | 3.1 µM
CC(=O)Nc1ccc(S(=O)(=O)N(CC(C)C)C[C@@H](O)[C@H](CCc2ccccc2)NC(=O)Cn2c(=O)oc3ccccc32)cc1 |  | IC50 |  | 0.005 µM
CC(=O)N(CC[C@@H](O)[C@H](Cc1ccccc1)NC(=O)c1cccc(O)c1C)[C@@H](Cc1ccccc1)C(=O)NCc1ccc(C)cc1 |  | IC50 |  | 1.6 µM
CNc1cccc(S(=O)(=O)N(C[C@@H](O)[C@H](Cc2ccccc2)NC(=O)O[C@H]2CO[C@H]3OCC[C@H]32)CC(C)(C)CCN)c1 | fluorescence | Ki |  | <0.001 µM
CC(C)(C)NC(=O)[C@@H]1C[C@]2(C)CCCC[C@]2(C)CN1C[C@@H](O)COc1ccc2[nH]ccc2c1 |  | IC50 |  | 14 µM
C[C@@H](O)[C@H](NC(=O)CCCCCCCCCCCCCCC(=O)N[C@@H](CC(N)=O)C(=O)N[C@@H](Cc1ccccc1)C(=O)O)C(=O)N[C@H](C(=O)N[C@@H](Cc1ccccc1)C(N)=O)C1CCCCC1 | HPLC | IC50 |  | 0.68 µM
CC(=O)N(CC[C@@H](O)[C@H](Cc1ccccc1)NC(=O)c1cccc(O)c1C)[C@@H](Cc1ccccc1)C(=O)NCc1ccccc1C |  | IC50 |  | 1.8 µM
COc1ccc(S(=O)(=O)N(C[C@@H](O)[C@H](Cc2ccccc2)NC(=O)OC(C)(C)C)CC(C)(C)CCCN=[N+]=[N-])cc1 | fluorescence | Ki |  | <0.001 µM
CSCC[C@H](NC(=O)CCCCCCCCCCCCCCC(=O)N[C@H](C(=O)N[C@@H](CC1CCCCC1)C(=O)N[C@@H](Cc1ccccc1)C(N)=O)C(C)O)C(=O)N[C@@H](Cc1ccccc1)C(=O)O | HPLC | IC50 |  | 1.34 µM
CCC(=O)N(CC[C@@H](O)[C@H](Cc1ccccc1)NC(=O)c1cccc(O)c1C)[C@@H](Cc1ccccc1)C(=O)NC(C)(C)C |  | IC50 |  | 0.38 µM
CC(C)(CCCCNC(=O)Oc1ccc(F)cc1)CN(C[C@@H](O)[C@H](Cc1ccccc1)NC(=O)O[C@H]1CO[C@H]2OCC[C@H]21)S(=O)(=O)c1ccc2c(c1)OCO2 | fluorescence | Ki |  | <0.001 µM
CC(C)[C@H](NC(=O)[C@H](C)NS(=O)(=O)Cc1ccccc1)C(=O)N[C@@H](Cc1ccccc1)C(O)C(O)[C@H](Cc1ccccc1)NC(=O)[C@@H](NC(=O)[C@H](C)NS(=O)(=O)Cc1ccccc1)C(C)C |  | IC50 |  | 0.023 µM
CC(=O)N[C@H](CS(=O)(=O)Cc1ccc(Cl)cc1)C(=O)N[C@@H](CCc1ccccc1)[C@H](O)C(=O)N1CSC(C)(C)[C@H]1C(=O)NCc1ccccc1C |  | IC50 |  | 0.00022 µM
CO/N=C(/C)CCC(C)(C)CN(C[C@@H](O)[C@H](Cc1ccccc1)NC(=O)O[C@H]1CO[C@H]2OCC[C@H]21)S(=O)(=O)c1cccc2c1OCO2 | fluorescence | Ki |  | <0.001 µM
CCC(CC[C@@H](C)[C@H]1CC[C@H]2[C@@H]3CC=C4C[C@@H](OC5OC(CO)C(O)C(O)C5O)CC[C@]4(C)[C@H]3CC[C@]12C)C(C)C |  | IC50 |  | >100 µM
CC(C)(CCCNC(=O)N1CCCC1)CN(C[C@@H](O)[C@H](Cc1ccccc1)NC(=O)O[C@H]1CO[C@H]2OCC[C@H]21)S(=O)(=O)c1ccc2c(c1)OCO2 | fluorescence | Ki |  | <0.001 µM
CC(C)[C@H](NC(=O)[C@H](C)NC(=O)[C@H](CO)NC(=O)OCc1ccccc1)C(=O)N[C@@H](Cc1ccccc1)[C@@H](O)[C@H](O)[C@H](Cc1ccccc1)NC(=O)[C@@H](NC(=O)[C@H](C)NC(=O)[C@H](CO)NC(=O)OCc1ccccc1)C(C)C |  | IC50 | PR-V82F | 0.058 µM
Cc1ccc(-c2c3c(n([C@@H]4O[C@H](CO)[C@H](O)[C@H](O)[C@H]4O)c(=S)c2C#N)-c2ccccc2C3)cc1 |  | IC50 |  | >100 µM
COC(=O)N1C2C3C4N(C(=O)OC)C5C(C1C5(CO)[C@H]3c1ccccc1)[C@@H](c1ccccc1)C24CO |  | Ki |  | 0.075 µM
CC(C)(CCNC(=O)NC(C)(C)C)CN(C[C@@H](O)[C@H](Cc1ccccc1)NC(=O)O[C@H]1CO[C@H]2OCC[C@H]21)S(=O)(=O)c1ccc2c(c1)OCO2 | fluorescence | Ki |  | <0.001 µM
C[C@H]1[C@H](C)CC[C@]2(C(=O)O)CC[C@]3(C)C(=CC[C@@H]4[C@@]5(C)CC[C@H](O)C(C)(C)[C@@H]5CC[C@]43C)[C@H]12 |  | IC50 |  | 8 µM
CNOC(=O)CNC(=O)NCCC(C)(C)CN(C[C@@H](O)[C@H](Cc1ccccc1)NC(=O)O[C@H]1CO[C@H]2OCC[C@H]21)S(=O)(=O)c1ccc(OC)cc1 | fluorescence | Ki |  | <0.001 µM
Cc1ccccc1CNC(=O)[C@H]1N(C(=O)[C@@H](O)[C@H](Cc2ccccc2)NC(=O)CC(C)(C)C(=O)O)CSC1(C)C |  | IC50 |  | <5 µM
CCCCCCCC/C=C/CCCCCCCC(=O)OC1CC[C@@]2(C)C(=CCC3C4CCC([C@H](C)CC[C@H](CC)C(C)C)[C@@]4(C)CCC32)C1 |  | IC50 |  | >100 µM
CC(=O)N(CC[C@@H](O)[C@H](Cc1ccccc1)NC(=O)c1cccc(O)c1C)[C@@H](Cc1ccccc1)C(=O)NC1CCCCC1 |  | IC50 |  | 100 µM
CCN(/C=C1\C(=O)Nc2ccc(S(=O)(=O)N(CC(C)C)C[C@@H](O)[C@H](Cc3ccccc3)NC(=O)O[C@H]3CO[C@H]4OCC[C@H]43)cc21)CC | substrate cleavage | Ki | L10 L24 M36 I54 L63 A71 V82 I84 | <0.0001 µM
CCOC(=O)NCCCC(C)(C)CN(C[C@@H](O)[C@H](Cc1ccccc1)NC(=O)O[C@H]1CO[C@H]2OCC[C@H]21)S(=O)(=O)c1ccc2c(c1)OCO2 | fluorescence | Ki |  | <0.001 µM
Nc1ncnc2c1ncn2[C@@H]1O[C@H](CO)[C@@H](O)[C@H]1O |  | IC50 |  | >100 µM
CNC(=O)NCCC(C)(C)CN(C[C@@H](O)[C@H](Cc1ccccc1)NC(=O)O[C@H]1CO[C@H]2OCC[C@H]21)S(=O)(=O)c1ccc(OC)cc1 | fluorescence | Ki |  | <0.001 µM
CNN[C@H](C(=O)NC(=O)[C@H]1N(C(=O)[C@@H](O)[C@H](Cc2ccccc2)NC(=O)[C@@H](NC(=O)[C@H](Cc2c[nH]c3ccccc23)NC(C)=O)C(C)C)CSC1(C)C)C(C)C |  | IC50 |  | 0.015 µM
CCN(CC)C(=O)NCCCC(C)(C)CN(C[C@@H](O)[C@H](Cc1ccccc1)NC(=O)O[C@H]1CO[C@H]2OCC[C@H]21)S(=O)(=O)c1ccc2c(c1)OCO2 | fluorescence | Ki |  | <0.001 µM
CC(C)[C@H](NC(=O)[C@H](C)NC(=O)Nc1ccc(C(F)(F)F)cc1)C(=O)N[C@@H](Cc1ccccc1)C(O)C(O)[C@H](Cc1ccccc1)NC(=O)[C@@H](NC(=O)[C@H](C)NC(=O)Nc1ccc(C(F)(F)F)cc1)C(C)C |  | IC50 |  | 2 µM
CC(C)(CCCCNC(=O)N1CCOCC1)CN(C[C@@H](O)[C@H](Cc1ccccc1)NC(=O)O[C@H]1CO[C@H]2OCC[C@H]21)S(=O)(=O)c1ccc2c(c1)OCO2 | fluorescence | Ki |  | <0.001 µM
COC(=O)[C@]12CCC(C)(C)C[C@H]1C1=CC[C@@H]3[C@@]4(C)CC[C@H](O)C(C)(C)[C@@H]4CC[C@@]3(C)[C@]1(C)CC2 |  | IC50 |  | 20 µM

ICn is the concentration giving n% inhibition. An empty or dashed field is not shown.